Compound potency records, mixed from different reports. Data source: NIAID ChemDB in PubChem.

All rows: cytotoxicity tests; cell line: MT-4; read by: MTT; measure: CC50

CCn: concentration that lowers growth or viability of the cells by n%. Rows are shuffled and stem from different studies.

smiles,value
CC(C)c1s/c(=N\S(=O)(=O)c2cc(Br)ccc2O)n(C)c1Cl,>25 µM
NS(=O)(=O)c1ccc(NC(=O)CSc2nc3ncccc3n2-c2ccc(C3CC3)c3ccccc23)c(Br)c1,1.69 µM
NC(=O)OCc1cn(Cc2ccncc2)c(Sc2cc(Cl)cc(Cl)c2)c1C1CCCCC1,119.7 µM
NC(=O)c1ccc(Cn2cc(CSc3nc(Cc4c(Cl)cccc4Cl)c(I)c(=O)[nH]3)nn2)cc1,94.13 µM
c1cc(CNCCCN2CCCC2)ccc1CCNCCCN1CCOCC1,>64.34 µM
CC(C)c1c(COC(N)=O)cn(Cc2ccncc2)c1Sc1cc(Cl)cc(Cl)c1,>200 µM
CCc1c(CC2CCCCC2)nc(SCC(=O)c2ccccc2)[nH]c1=O,263 µM
Cc1cc(C)c(Nc2nc(NC3CCN(Cc4ccccn4)CC3)nc3nc[nH]c23)c(C)c1,114 µM
CCOC(=O)c1cn(Cc2ccncc2)c(Sc2cc(Cl)cc(Cl)c2)c1C1CCC1,80 µM
COC(=O)c1ccc(NC(=O)CSc2nc3ncccc3n2-c2ccc(C3CC3)c3ccccc23)c(Br)c1,2.87 µM
CC(C)c1c(Sc2cccc3ccccc23)n(COCC2CC2)c(=O)[nH]c1=O,32.75 µM
O=C1/C(=C/c2cc(O)c(O)c(O)c2)CCC/C1=C\c1cc(O)c(O)c(O)c1,50 µM
COc1ccc(CCN=C2C=C(Cc3ccc4ccccc4c3)NS(=O)(=O)N2)cc1,159 µM
O=C1/C(=C/c2ccc(O)c(O)c2)CC(C(=O)O)C/C1=C\c1ccc(O)c(O)c1,42 µM
O=C(CSc1sc(Cl)nc1-c1ccc(Br)cc1Br)Nc1ccc(Cl)cc1Cl,159 µM
COc1cccc(-c2nnc3n2-c2ccccc2-n2c(-c4cccc(OC)c4)nnc2C3C)c1,>200 µM
NS(=O)(=O)c1ccc(NC2=NS(=O)(=O)NC(Cc3ccccc3)=C2)cc1,318 µM
C=S(=C)(C)c1ccc(CN2CCC(Nc3nc(Nc4c(C)cc(C)cc4C)c4[nH]cnc4n3)CC2)cc1,34.64 µM
O=c1ccn([C@@H]2CC[C@H](CO)[Se]2)c(=O)[nH]1,>100 µM
CC/C=C/C=C/C=C\C(=O)O[C@@H]1[C@@H](C)[C@]2(O)[C@@H]3C=C(C)C(=O)[C@@H]3CC(CO)=C[C@H]2[C@@H]2C(C)(C)[C@]12OC(=O)CCC,5.7 µM
Cc1cc([N+](=O)[O-])ccc1NC(=O)CSc1sc(N)nc1-c1ccc(Br)cc1Br,30.81 µM
O=S1(=O)NC(Cc2ccc3ccccc3c2)=CC(=NC2CC2)N1,218 µM
CC1CCCCN1CCCNC(=O)Cc1ccc(CC(=O)NCCCN2CCCCC2C)cc1,>266 µM
Cc1cn([C@H]2C[C@H](N=[N+]=[N-])[C@@H](CO)O2)c(=O)[nH]c1=O,>25 µM
O=S1(=O)NC(Cc2ccc3ccccc3c2)=CC(=NCc2ccccc2)N1,161 µM
CCN1C/C(=C\c2ccc(O)c([N+](=O)[O-])c2)C(=O)/C(=C/c2ccc(O)c([N+](=O)[O-])c2)C1,15 µM
Cc1c(C(C)(C)C)s/c(=N\S(=O)(=O)c2ccccc2[N+](=O)[O-])n1C,>25 µM
Cc1cn([C@H]2CC[C@H](CO)[Se]2)c(=O)[nH]c1=O,>100 µM
Cc1c(C(C)(C)C)s/c(=N\S(=O)(=O)c2cccc(Cl)c2)n1C,>25 µM
Cc1c(C(C)CC2CCCCC2)nc(SCC(=O)c2ccc(F)cc2)[nH]c1=O,115 µM
CN1CCN(CCCNCCc2ccc(CCNCCCN3CCN(C)CC3)cc2)CC1,81.02 µM
CCc1c(Sc2cccc3ccccc23)n(COCc2ccccc2)c(=O)[nH]c1=O,34.28 µM
O=c1ccn([C@H]2CC[C@H](CO)[Se]2)c(=O)[nH]1,>100 µM
Nc1ccn([C@H]2CC[C@@H](CO)O2)c(=O)n1,>94.69 µM
NC(=O)c1ccc(Cn2cc(CSc3nc(Cc4cccc5ccccc45)cc(=O)[nH]3)nn2)cc1,105 µM
CC1c2nnc(-c3ccc(Cl)cc3)n2-c2ccccc2-n2c(-c3ccc(Cl)cc3)nnc21,12 µM
c1cc(CNCCCN2CCCCC2)ccc1CNCCCN1CCCCC1,>64.65 µM
Cc1cc(C)c(Nc2nc(NC3CCN(Cc4ccccc4F)CC3)nc3nc[nH]c23)c(C)c1,23.61 µM
CCCc1c(Sc2cccc3ccccc23)n(COCc2ccccc2)c(=O)[nH]c1=O,32.57 µM
c1cc(CCNCCCN2CCCC2)ccc1CCNCCCN1CCCC1,95.7 µM
N#Cc1ccc(NC2=NS(=O)(=O)NC(Cc3cccc4ccccc34)=C2)cc1,254 µM
Nc1nc(-c2ccc(Br)cc2Br)c(SCC(=O)Nc2ccccc2Br)s1,33.18 µM
Cc1c(CCC2CCCCC2)nc(SCC(=O)c2ccc(F)cc2)[nH]c1=O,7.3 µM
CN(C)c1ccc(NC2=NS(=O)(=O)NC(Cc3ccccc3)=C2)cc1,256 µM
CC(=O)Nc1ccc(Cl)cc1S(=O)(=O)/N=c1\sc(C(C)(C)C)c(C)n1C,>25 µM
O=c1[nH]c(SCc2cn(Cc3ccc(F)cc3)nn2)nc(Cc2c(Cl)cccc2Cl)c1I,92.05 µM
Oc1ccc([C@H]2Oc3cc(O)ccc3[C@@H](c3c(O)cc(O)c4c3O[C@H](c3ccc(O)cc3)[C@H](O)C4)[C@@H]2O)cc1,>333 µM
O=S1(=O)N=C(Nc2ccc(Cl)cc2)C=C(Cc2ccccc2)N1,179 µM
Cc1ccnc2c1NC(=O)c1cccnc1N2C1CC1,>15.02 µM
c1cc(CCNCCN2CCCCC2)ccc1CCNCCN1CCCCC1,129 µM
CC(C)Nc1cccnc1N1CCN(C(=O)c2cc3cc(NS(C)(=O)=O)ccc3[nH]2)CC1,36.8 µM
O=C(Cc1ccc(CC(=O)NCCN2CCOCC2)cc1)NCCN1CCOCC1,>299 µM
CCCCCCCCCCCCCCCC(=O)O,>333 µM
Cc1cn([C@H]2C[C@H](N=[N+]=[N-])[C@@H](COC(=O)CCC(=O)OCC3OC4OC5C(COS(=O)(=O)O)OC(OC6C(COS(=O)(=O)O)OC(OC7C(COS(=O)(=O)O)OC(OC8C(COS(=O)(=O)O)OC(OC9C(COS(=O)(=O)O)OC(OC3C(OS(=O)(=O)O)C4OS(=O)(=O)O)C(OS(=O)(=O)O)C9OS(=O)(=O)O)C(OS(=O)(=O)O)C8OS(=O)(=O)O)C(OS(=O)(=O)O)C7OS(=O)(=O)O)C(OS(=O)(=O)O)C6OS(=O)(=O)O)C(OS(=O)(=O)O)C5OS(=O)(=O)O)O2)c(=O)[nH]c1=O,70.07 µg/mL
Cc1c(CCC2CCCCC2)nc(SCC(=O)c2ccccc2)[nH]c1=O,124 µM
Cc1cn([C@H]2C[C@H](N=[N+]=[N-])[C@@H](COC(=O)CCC(=O)OC[C@H]3O[C@@H]4O[C@H]5[C@H](O)[C@@H](O)[C@@H](O[C@H]6[C@H](O)[C@@H](O)[C@@H](O[C@H]7[C@H](O)[C@@H](O)[C@@H](O[C@H]8[C@H](O)[C@@H](O)[C@@H](O[C@H]9[C@H](O)[C@@H](O)[C@@H](O[C@H]3[C@H](O)[C@H]4O)O[C@@H]9CO)O[C@@H]8CO)O[C@@H]7CO)O[C@@H]6CO)O[C@@H]5CO)O2)c(=O)[nH]c1=O,8.2 µg/mL
Cc1c(C(C)CC2CCCCC2)nc(SCC(=O)c2ccc(O)cc2)[nH]c1=O,24 µM
CCN(C)C1=NS(=O)(=O)NC(Cc2ccc3ccccc3c2)=C1,195 µM
CC(C)Nc1cccnc1N1CCN(C(=O)c2cc3cc(NS(C)(=O)=O)ccc3[nH]2)CC1,>43.81 µM
Nc1nc(-c2ccc(Br)cc2Br)c(SCC(=O)Nc2ccccc2Cl)s1,23.67 µM
C=C1[C@H](CO)[C@@H](O)C[C@@H]1n1cnc2c(=O)[nH]c(N)nc21,27.78 µM
CONC(=O)c1ccc(NC(=O)CSc2nc3ncccc3n2-c2ccc(C3CC3)c3ccccc23)c(Cl)c1,1.05 µM
CC1c2nnc(-c3ccccc3)n2-c2ccccc2-n2c(-c3ccccc3)nnc21,4 µM
N#Cc1ccccc1Cn1cc(CSc2nc(Cc3cccc4ccccc34)c(I)c(=O)[nH]2)nn1,75.93 µM
Nc1nc(-c2ccc(Br)cc2Br)c(SCC(=O)Nc2ccccc2N)s1,33.04 µM
Cc1ccnc2c1NC(=O)c1cccnc1N2C1CC1,>200 µM
Cc1cc(C(O)c2ccc3ccccc3c2)nc(Nc2ccc(C#N)cc2)n1,31.2 µM
CCc1c(Sc2cccc3ccccc23)n(COCc2ccc(F)cc2)c(=O)[nH]c1=O,30.96 µM
N#Cc1ccccc1Cn1cc(CSc2nc(Cc3cccc4ccccc34)cc(=O)[nH]2)nn1,105 µM
O=C1/C(=C/c2ccc(O)c(O)c2)CCC/C1=C\c1ccc(O)c(O)c1,7.4 µM
OCc1cn(Cc2ccncc2)c(Sc2cc(Cl)cc(Cl)c2)c1C1CCC1,94.6 µM
COc1ccc(S(=O)(=O)/N=c2\sc(C(C)(C)C)c(C)n2C)cc1,>25 µM
CN(C)C=C1c2nnc(-c3ccccc3)n2-c2ccccc2-n2c1nnc2-c1ccccc1,133 µM
CC(C)Nc1cccnc1N1CCN(C(=O)c2cc3cc(NS(C)(=O)=O)ccc3[nH]2)CC1,>4.38 µM
Cc1ccnc2c1NC(=O)c1cccnc1N2C1CC1,>15.02 µM
Nc1nc(-c2ccc(Br)cc2Br)c(SCC(=O)Nc2ccccc2F)s1,24.94 µM
Cc1c(C(C)(C)C)s/c(=N\S(=O)(=O)c2cccc(O)c2)n1C,>25 µM
CC(C)c1c(C(=O)O)cn(Cc2ccncc2)c1Sc1ccccc1,190 µM
COc1ccc(Cn2cc(CSc3nc(Cc4cccc5ccccc45)cc(=O)[nH]3)nn2)cc1,68.53 µM
Cc1cc([N+](=O)[O-])ccc1NC(=O)CSc1sc(Cl)nc1-c1ccc(Br)cc1Br,127.4 µM

Again, the opening 11 rows:

{"smiles": "CC(C)c1s/c(=N\\S(=O)(=O)c2cc(Br)ccc2O)n(C)c1Cl", "value": ">25 µM"}
{"smiles": "NS(=O)(=O)c1ccc(NC(=O)CSc2nc3ncccc3n2-c2ccc(C3CC3)c3ccccc23)c(Br)c1", "value": "1.69 µM"}
{"smiles": "NC(=O)OCc1cn(Cc2ccncc2)c(Sc2cc(Cl)cc(Cl)c2)c1C1CCCCC1", "value": "119.7 µM"}
{"smiles": "NC(=O)c1ccc(Cn2cc(CSc3nc(Cc4c(Cl)cccc4Cl)c(I)c(=O)[nH]3)nn2)cc1", "value": "94.13 µM"}
{"smiles": "c1cc(CNCCCN2CCCC2)ccc1CCNCCCN1CCOCC1", "value": ">64.34 µM"}
{"smiles": "CC(C)c1c(COC(N)=O)cn(Cc2ccncc2)c1Sc1cc(Cl)cc(Cl)c1", "value": ">200 µM"}
{"smiles": "CCc1c(CC2CCCCC2)nc(SCC(=O)c2ccccc2)[nH]c1=O", "value": "263 µM"}
{"smiles": "Cc1cc(C)c(Nc2nc(NC3CCN(Cc4ccccn4)CC3)nc3nc[nH]c23)c(C)c1", "value": "114 µM"}
{"smiles": "CCOC(=O)c1cn(Cc2ccncc2)c(Sc2cc(Cl)cc(Cl)c2)c1C1CCC1", "value": "80 µM"}
{"smiles": "COC(=O)c1ccc(NC(=O)CSc2nc3ncccc3n2-c2ccc(C3CC3)c3ccccc23)c(Br)c1", "value": "2.87 µM"}
{"smiles": "CC(C)c1c(Sc2cccc3ccccc23)n(COCC2CC2)c(=O)[nH]c1=O", "value": "32.75 µM"}